Source: article PMC12405303
Construct, isoform or probe ends are uncertain for at least one entry.

Tested on: AcsS (His-AcsS, LysR-type regulator) (Vibrio parahaemolyticus)
Assay: EMSA
Conditions: 0.8-4.8 pmol His-AcsS in 10 uL, 100 ng DNA, dose-dependent shift; 10 mM Tris-HCl pH 7.5, 50 mM NaCl, 1 mM MgCl2, 0.5 mM EDTA, 0.5 mM DTT, 0.625 ug/mL salmon sperm DNA, 100 ng DNA in 10 uL, room temperature 20 min; 6% native PAGE; recombinant protein; residues 1-294; protein details: 6xHis (pET28a); probe letters rebuilt from the primers and the genome

GCGCGAATTCAAGCGAACTCCATCTCATAAGAACGAATTAGTCCTTTGTGTTTCATGACCTAGTTTCCCTTCTAGCACGCTACCGCCATTGGGGTGATTGCCCAATAGCCGTGTCGCGAACGTTTTAATTGATGAGCAGAGACATTTCTATGAATGTTTCTGAATTTCTGTAACGCATAAATTCGAAGGTAAGTTTAAAAATTCGTGTTGTTTAGGTAAGTGGAAATAAGAATGAAATTTAGACCTTTGGCTAAGTTTTGCTGTTTAGGAAAAAGCTGGTACTTGCTAAGCAGGGATGAGGAAAAGTATTAAGAAGCGAGTTTGATTATAAAAACTAAGGTTTAATTTCTTGATGGTCTAACGGATGACTTATTTACAGGGAAGGTCGACGCGC (double strand) [cpsA regulatory DNA region]
binding result: binds
